Where only a bound is given, the exact number is not on record here.

Amino acid sequences for entries named in this document (tags omitted). Residues count along the entry.
UniProt Q45894, 1-425: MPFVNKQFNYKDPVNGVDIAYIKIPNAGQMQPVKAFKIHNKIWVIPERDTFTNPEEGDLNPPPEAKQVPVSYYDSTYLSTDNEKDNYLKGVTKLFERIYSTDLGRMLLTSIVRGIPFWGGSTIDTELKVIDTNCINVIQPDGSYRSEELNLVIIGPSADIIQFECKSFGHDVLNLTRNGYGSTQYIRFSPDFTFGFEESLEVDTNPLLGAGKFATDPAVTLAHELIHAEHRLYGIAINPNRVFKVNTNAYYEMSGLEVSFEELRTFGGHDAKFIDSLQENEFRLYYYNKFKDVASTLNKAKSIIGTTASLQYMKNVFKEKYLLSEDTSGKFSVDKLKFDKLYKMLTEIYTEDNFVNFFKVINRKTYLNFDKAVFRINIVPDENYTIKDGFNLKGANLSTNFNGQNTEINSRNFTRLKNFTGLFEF

The assay addresses Botulinum neurotoxin type A2 [1-425] (Clostridium botulinum, UniProt Q45894).
For the compound `O=C(O)CN1C(=O)/C(=C/c2cccc(-n3cccn3)c2)SC1=S` [2-[(5Z)-4-oxo-5-{[3-(1H-pyrazol-1-yl)phenyl]methylidene}-2-sulfanylidene-1,3-thiazolidin-3-yl]acetic acid], the IC50 is more than 200 µM. On to `Cc1nc(/C=C2\SC(=S)N(CC(=O)O)C2=O)c(C)o1` [2-[(5Z)-5-[(2,5-dimethyl-1,3-oxazol-4-yl)methylidene]-4-oxo-2-sulfanylidene-1,3-thiazolidin-3-yl]acetic acid], for which the IC50 is more than 200 µM. The value for `O=C(O)CN1C(=O)/C(=C/c2cccc(Br)n2)SC1=S` [2-[(5Z)-5-[(6-bromopyridin-2-yl)methylidene]-4-oxo-2-sulfanylidene-1,3-thiazolidin-3-yl]acetic acid] was more than 200 µM.

Take `O=C1/C(=C/c2ccc(-c3ccc(Cl)cc3Cl)o2)SC(=S)N1C1CCS(=O)(=O)C1` (stereo unspecified) [3-[(5Z)-5-{[5-(2,4-dichlorophenyl)furan-2-yl]methylidene}-4-oxo-2-sulfanylidene-1,3-thiazolidin-3-yl]--thiolane-1,1-dione]: the IC50 is more than 100 µM. In the case of `O=C(O)CN1C(=O)/C(=C/c2cccc3c2oc2ccccc23)SC1=S` [2-[(5Z)-5-{8-oxatricyclo[7.4.0.0^{2,7}]trideca-1(9),2,4,6,10,12-hexaen-6-ylmethylidene}-4-oxo-2-sulfanylidene-1,3-thiazolidin-3-yl]acetic acid] it was 160 µM. As for `O=C(O)CN1C(=O)/C(=C/c2cn(-c3ccccc3)nc2-c2ccc(S(=O)(=O)N3CCOCC3)cc2)SC1=S`, the IC50 was more than 200 µM. In turn, `O=C(O)CN1C(=O)/C(=C/c2cccc(N3CCCC3)c2)SC1=S` [2-[(5Z)-4-oxo-5-{[3-(pyrrolidin-1-yl)phenyl]methylidene}-2-sulfanylidene-1,3-thiazolidin-3-yl]acetic acid] yielded an IC50 of more than 200 µM. In the case of `O=C(O)CN1C(=O)/C(=C/c2sc(Br)c3c2OCCO3)SC1=S` [2-[(5Z)-5-({7-bromo-2H,3H-thieno[3,4-b][1,4]dioxin-5-yl}methylidene)-4-oxo-2-sulfanylidene-1,3-thiazolidin-3-yl]acetic acid] it was more than 200 µM; in that of `O=C(O)CN1C(=O)/C(=C/c2cn(-c3ccccc3)nc2-c2cccs2)SC1=S`, 160 µM; in that of `CC1Cc2cc(-c3nn(-c4ccccc4)cc3/C=C3\SC(=S)N(CCS(=O)(=O)O)C3=O)ccc2O1` (stereo unspecified), more than 200 µM.

Turning to `O=C1/C(=C/c2ccc(-c3cccc(Cl)c3Cl)o2)SC(=S)N1C1CCS(=O)(=O)C1` (stereo unspecified) [3-[(5Z)-5-{[5-(2,3-dichlorophenyl)furan-2-yl]methylidene}-4-oxo-2-sulfanylidene-1,3-thiazolidin-3-yl]--thiolane-1,1-dione], the IC50 was more than 200 µM. As to `O=C(O)CN1C(=O)/C(=C/c2cc(-c3ccc(Br)cc3)on2)SC1=S` [2-[(5Z)-5-{[5-(4-bromophenyl)-1,2-oxazol-3-yl]methylidene}-4-oxo-2-sulfanylidene-1,3-thiazolidin-3-yl]acetic acid], the IC50 was more than 200 µM. The value for `O=C(O)CN1C(=O)/C(=C/c2ccc3c(c2)OCO3)SC1=S` [2-[(5Z)-5-(2H-1,3-benzodioxol-5-ylmethylidene)-4-oxo-2-sulfanylidene-1,3-thiazolidin-3-yl]acetic acid] was more than 200 µM; that for `O=C(O)CN1C(=O)/C(=C/c2cc(-c3ccco3)on2)SC1=S` [2-[(5Z)-5-{[5-(furan-2-yl)-1,2-oxazol-3-yl]methylidene}-4-oxo-2-sulfanylidene-1,3-thiazolidin-3-yl]acetic acid] was more than 200 µM; that for `O=C1/C(=C/c2cn(-c3ccccc3)nc2-c2ccccc2)SC(=S)N1C1CCS(=O)(=O)C1` (stereo unspecified) [3-[(5Z)-5-[(1,3-diphenyl-1H-pyrazol-4-yl)methylidene]-4-oxo-2-sulfanylidene-1,3-thiazolidin-3-yl]--thiolane-1,1-dione] was more than 200 µM. As to `O=C1/C(=C/c2cn(-c3ccccc3)nc2-c2ccc(Cl)cc2)SC(=S)N1C1CCS(=O)(=O)C1` (stereo unspecified) [3-[(5Z)-5-{[3-(4-chlorophenyl)-1-phenyl-1H-pyrazol-4-yl]methylidene}-4-oxo-2-sulfanylidene-1,3-thiazolidin-3-yl]--thiolane-1,1-dione], the IC50 is more than 200 µM. For the compound `O=C1/C(=C/c2cn(-c3ccccc3)nc2-c2ccc(OCc3ccc(Cl)cc3)cc2)SC(=S)N1CCS(=O)(=O)O`, the IC50 was more than 200 µM. In the case of `O=C(O)CN1C(=O)/C(=C/c2cc3nccnc3s2)SC1=S` [2-[(5Z)-4-oxo-2-sulfanylidene-5-{thieno[2,3-b]pyrazin-6-ylmethylidene}-1,3-thiazolidin-3-yl]acetic acid] it was more than 200 µM; in that of `O=C1/C(=C/c2cn(-c3ccccc3)nc2-c2ccc(S(=O)(=O)N3CCCCC3)cc2)SC(=S)N1CCS(=O)(=O)O`, 20.1 µM. In the case of `O=C(O)CN1C(=O)C(=Cc2c[nH]nc2-c2ccc(C(F)(F)F)cc2)SC1=S` [2-[(5Z)-4-oxo-2-sulfanylidene-5-({3-[4-(trifluoromethyl)phenyl]-1H-pyrazol-4-yl}methylidene)-1,3-thiazolidin-3-yl]acetic acid] it was more than 200 µM; in that of `O=C(O)CN1C(=O)/C(=C/c2c[nH]c3ccc(Br)cc23)SC1=S` [2-[(5Z)-5-[(5-bromo-1H-indol-3-yl)methylidene]-4-oxo-2-sulfanylidene-1,3-thiazolidin-3-yl]acetic acid], more than 200 µM; in that of `COc1ccc(-c2cc(/C=C3\SC(=S)N(CC(=O)O)C3=O)no2)cc1` [2-[(5Z)-5-{[5-(4-methoxyphenyl)-1,2-oxazol-3-yl]methylidene}-4-oxo-2-sulfanylidene-1,3-thiazolidin-3-yl]acetic acid], 194 µM. For `O=C(O)CN1C(=O)/C(=C2/C(=O)N(CC(=O)Nc3cccc(Cl)c3)c3ccccc32)SC1=S`, the IC50 is more than 200 µM. In the case of `O=C1/C(=C/c2ccc(-c3cc(Cl)ccc3Cl)o2)SC(=S)N1CC1CCCO1` (stereo unspecified) [(5Z)-5-{[5-(2,5-dichlorophenyl)furan-2-yl]methylidene}-3-(oxolan-2-ylmethyl)-2-sulfanylidene-1,3-thiazolidin-4-one] it was more than 50 µM; in that of `O=C1/C(=C/c2cn(-c3ccccc3)nc2-c2ccc(S(=O)(=O)N3CCOCC3)cc2)SC(=S)N1CCS(=O)(=O)O`, 85 µM.

Take `Cc1nc(-c2ccccc2)c(/C=C2\SC(=S)N(CC(=O)O)C2=O)s1` [2-[(5Z)-5-[(2-methyl-4-phenyl-1,3-thiazol-5-yl)methylidene]-4-oxo-2-sulfanylidene-1,3-thiazolidin-3-yl]acetic acid]: the IC50 was more than 200 µM.

`O=C(O)CN1C(=O)/C(=C/c2cc(-c3ccc(F)cc3)on2)SC1=S` [2-[(5Z)-5-{[5-(4-fluorophenyl)-1,2-oxazol-3-yl]methylidene}-4-oxo-2-sulfanylidene-1,3-thiazolidin-3-yl]acetic acid]: the IC50 is more than 200 µM.

Turning to `Cc1ccc(-c2cc(/C=C3\SC(=S)N(CC(=O)O)C3=O)no2)cc1` [2-[(5Z)-5-{[5-(4-methylphenyl)-1,2-oxazol-3-yl]methylidene}-4-oxo-2-sulfanylidene-1,3-thiazolidin-3-yl]acetic acid], the IC50 turned out to be 130 µM. As to `CN1CCCN(c2ccc(/C=C3\SC(=S)N(CC(=O)O)C3=O)cc2)CC1` [2-[(5Z)-5-{[4-(4-methyl-1,4-diazepan-1-yl)phenyl]methylidene}-4-oxo-2-sulfanylidene-1,3-thiazolidin-3-yl]acetic acid], the IC50 is more than 50 µM. `O=C(O)CN1C(=O)/C(=C/c2cc(-c3ccc(Cl)cc3)on2)SC1=S` [2-[(5Z)-5-{[5-(4-chlorophenyl)-1,2-oxazol-3-yl]methylidene}-4-oxo-2-sulfanylidene-1,3-thiazolidin-3-yl]acetic acid] yielded an IC50 of 82.7 µM. Regarding `COc1ccc(-c2nn(-c3ccccc3)cc2/C=C2\SC(=S)N(CCS(=O)(=O)O)C2=O)cc1`, the IC50 is more than 200 µM. The compound `CCOc1ccc(-c2nn(-c3ccccc3)cc2/C=C2\SC(=S)N(CC(=O)O)C2=O)c(C)c1` came in with an IC50 of 130 µM. The value for `O=C1/C(=C/c2cn(-c3ccccc3)nc2-c2ccc(Cl)cc2)SC(=S)N1CCS(=O)(=O)O` was 26.4 µM.

In the case of `O=C(O)CN1C(=O)/C(=C/c2c[nH]c3ccccc23)SC1=S` [2-[(5Z)-5-(1H-indol-3-ylmethylidene)-4-oxo-2-sulfanylidene-1,3-thiazolidin-3-yl]acetic acid], the IC50 was more than 200 µM.

Turning to `CCOc1ccc(-c2nn(-c3ccccc3)cc2/C=C2\SC(=S)N(CC(=O)O)C2=O)cc1F`, the IC50 is more than 200 µM. Regarding `O=C1/C(=C/c2ccc(-c3ccc(Cl)cc3)o2)SC(=S)N1CCS(=O)(=O)O` [2-[(5Z)-5-{[5-(4-chlorophenyl)furan-2-yl]methylidene}-4-oxo-2-sulfanylidene-1,3-thiazolidin-3-yl]ethane-1-sulfonic acid], the IC50 is more than 200 µM.

The compound `O=C(O)CN1C(=O)/C(=C/c2cc(-c3ccccc3)on2)SC1=S` [2-[(5Z)-4-oxo-5-[(5-phenyl-1,2-oxazol-3-yl)methylidene]-2-sulfanylidene-1,3-thiazolidin-3-yl]acetic acid] showed an IC50 of more than 200 µM. `O=C(O)CN1C(=O)/C(=C/c2csc3ccccc23)SC1=S` [2-[(5Z)-5-(1-benzothiophen-3-ylmethylidene)-4-oxo-2-sulfanylidene-1,3-thiazolidin-3-yl]acetic acid] showed a 50% inhibitory concentration (IC50) of more than 200 µM. The value for `O=C(O)CN1C(=O)C(=Cc2cc(-c3ccc(Cl)cc3)n[nH]2)SC1=S` [2-[(5Z)-5-{[5-(4-chlorophenyl)-1H-pyrazol-3-yl]methylidene}-4-oxo-2-sulfanylidene-1,3-thiazolidin-3-yl]acetic acid] was more than 200 µM; that for `O=C(O)C(c1ccccc1)N1C(=O)/C(=C/c2ccc(-c3ccc(Cl)cc3Cl)o2)SC1=S` (stereo unspecified) was more than 200 µM; that for `Cc1ccc2cc(/C=C3\SC(=S)N(CC(=O)O)C3=O)ccc2n1` [2-[(5Z)-5-[(2-methylquinolin-6-yl)methylidene]-4-oxo-2-sulfanylidene-1,3-thiazolidin-3-yl]acetic acid] was more than 200 µM.

(Values after BindingDB's records for 18221310 (Burnham Institute For Medical Research, 2008).)
